Assay results: article PMC7861197 (Molecular pharmaceutics, 2020)

What was measured:
[1] = In vitro drug release in human plasma with or without esterase inhibitor PMSF; details: 37 °C
[2] = rat axillary lymph nodes, 4 h post dose
[3] = esterase-inhibited human plasma (5 mM PMSF)
[4] = 24 h incubation at 10 ug/mL FTC, normalized to soluble protein

For “poly(L-lysine succinylated) FTC prodrug [PLS-FTC]”, the “first-order drug release half-life” value [1, 3] was 29 h, the “FTC released after 24 h incubation” value [1, 3] was 43% and the “FTC released after 24 h incubation” value ([1]; fresh human plasma) was ~ 65%. For the same substance, the “first-order drug release half-life” value ([1]; human plasma) was 15 h, the “FTC signal abundance (IR-MALDESI MSI)” value [2] was 158.0 ± 96.0 arbitrary units and the frequency of detection [2] was 11.1 ± 2.2 % of sampling locations with measurable drug. The “FTC concentration in PBMCs” value (human PBMCs; [4]) was 40.6 ± 1.7 ng/mg protein, the “FTC-TP concentration in PBMCs” value (human PBMCs; [4]) was 52.7 ± 14.3 ng/mg protein and the “ratio of active metabolite to precursor, FTC-TP/FTC” value (human PBMCs; human PBMCs, 24 h incubation) was 1.3.
